# Measurements: patent EP1328811B1, “HCV MOSAIC ANTIGEN COMPOSITION” (MedMira Inc., priority 2000, dated 2005)
# Test system: anti-HCV antibodies
# Assay: Determination of optimal peptide to carrier mass ratio by immunofiltration dotting assay (Example 7)
# Type: binding, human
# Conditions: ratio giving an intensity between 2+ and 1+ with pooled HCV positive serum diluted 1 in 5; total of about 25 to 30 peptides per carrier
row,Sequence,Peptide/HSA Mass Ratio (optimal)
1,"KTKRNTNRRPQDVKF [MDL-2, HCV core region antigenic peptide]",0.125
2,PKARQPEGRAWAQPG [MDL-6],0.25
3,"MSTNPKPQRKTKRNTNRR [MDL-1, HCV core region antigenic peptide]",0.5
4,"GQIVGGVYLLPRRGP [MDL-3, HCV core region antigenic peptide]",0.5
5,"GPRLGVRATRKTSERSQP [MDL-4, HCV core region antigenic peptide]",0.5
6,"ATRKTSERSQPRGRRQPI [MDL-5, HCV core region antigenic peptide]",0.125
